Experimental findings from patent US9932570B2 (priority 2015, dated 2018) are described below.

Where “and” joins values, the source holds several entries; their conditions need not be identical. Identical values can stand only once. Like-named read-outs stand apart in the source and are kept apart here.

Test [1] has as its target T1, Anthrax lethal factor (Bacillus anthracis, UniProt P15917, A299S).
Test [2] addresses T1, Anthrax lethal factor. To be noted: for LOD: LF in neat plasma; for 3x standard deviation + the average: blanks (0 pg LF, n=6); for Intercept / Slope: peak area vs LF concentration.
Test [3] addresses T1, Anthrax lethal factor. To be noted: assay buffer.
Where [4] appears, read: LF 5 pg/ml neat plasma, 2 hour digest.
The mark [5] stands for this setting: LF 5 pg/ml neat plasma, 3.5 hour digest.
[6] abbreviates: LF 5 pg/ml neat plasma, 5 hour digest.
[7] abbreviates: LF 5 pg/ml neat plasma, overnight digest (RT).
[8] abbreviates: LF 10 pg/ml neat plasma, 2 hour digest.
Where [9] appears, read: LF 10 pg/ml neat plasma, 3.5 hour digest.
[10] abbreviates: LF 10 pg/ml neat plasma, 5 hour digest.
The mark [11] stands for this setting: LF 10 pg/ml neat plasma, overnight digest (RT).
Setting [12] is: LF 20 pg/ml neat plasma, 3.5 hour digest.
Where [13] appears, read: LF 20 pg/ml neat plasma, 5 hour digest.
Setting [14] is: LF 20 pg/ml neat plasma, overnight digest (RT).
[15] abbreviates: LF 50 pg/ml neat plasma, 2 hour digest.
The mark [16] stands for this setting: LF 50 pg/ml neat plasma, 3.5 hour digest.
[17] abbreviates: LF 50 pg/ml neat plasma, 5 hour digest.
Where [18] appears, read: LF 50 pg/ml neat plasma, overnight digest (RT).

Regarding `CC(=O)N[C@@H](CCCNC(=N)N)C(=O)N[C@@H](CCCNC(=N)N)C(=O)N[C@@H](CCCCN)C(=O)N[C@@H](CCCCN)C(=O)N[C@H](C(=O)N[C@@H](Cc1ccc(O)cc1)C(=O)N1CCC[C@H]1C(=O)Nc1ccc2c(C)cc(=O)oc2c1)C(C)C` [LBL 10079], the “Fluorescence as a function of LF concentration in 1:10 diluted plasma” value on Anthrax lethal factor [1] (1:10 diluted plasma) is “did not correlate with the amount of LF”.
Take `CC(=O)N[C@@H](CCCNC(=N)N)C(=O)N[C@H](CCCNC(=N)N)C(=O)N[C@H](CCCCN)C(=O)N[C@H](CCCCN)C(=O)N[C@H](C(=O)N[C@@H](Cc1ccc(O)cc1)C(=O)N1CCC[C@H]1C(=O)Nc1ccc2c(C)cc(=O)oc2c1)C(C)C` [LBL 10081]: the “Limit of detection at all time points” value on Anthrax lethal factor [2] (2, 3.5, 5 hr and overnight digests) is recorded as “less than 5 pg LF/ml of neat plasma”. The “Peak area, Average” value was found to be 6006 on Anthrax lethal factor [2] (LF 0 pg/ml neat plasma, 2 hour digest); 8815 at Anthrax lethal factor [2] (LF 0 pg/ml neat plasma, 3.5 hour digest); 10645 on Anthrax lethal factor [2] (LF 0 pg/ml neat plasma, 5 hour digest); 17136 at Anthrax lethal factor [2] (LF 0 pg/ml neat plasma, overnight digest (RT)); 9153 at Anthrax lethal factor [2] (setting [4]); 12322 at Anthrax lethal factor [2] (setting [5]). Besides, the “Peak area, Average” value at Anthrax lethal factor [2] (setting [6]) is 14953; on Anthrax lethal factor [2] (setting [7]) it was 26909; on Anthrax lethal factor [2] (setting [8]), 10315; on Anthrax lethal factor [2] (setting [9]) it was 15906; on Anthrax lethal factor [2] (setting [10]) it was 22309; on Anthrax lethal factor [2] (setting [11]), 36248. The “Peak area, Average” value at Anthrax lethal factor [2] (setting [12]) was found to be 24162; on Anthrax lethal factor [2] (setting [13]) it was 32916; at Anthrax lethal factor [2] (setting [14]), 57900; on Anthrax lethal factor [2] (setting [15]), 33662; on Anthrax lethal factor [2] (setting [16]) it was 49053; at Anthrax lethal factor [2] (setting [17]), 66657. Moreover, the “Peak area, Average” value on Anthrax lethal factor [2] (setting [18]) is 130221. The “Peak area (replicates)” value on Anthrax lethal factor [2] (setting [4]) was 9414 and 8891; on Anthrax lethal factor [2] (setting [5]), 11466 and 13177; on Anthrax lethal factor [2] (setting [6]), 14786 and 15119; on Anthrax lethal factor [2] (setting [7]), 28485 and 25333; on Anthrax lethal factor [2] (setting [8]) it was 10657 and 9972; at Anthrax lethal factor [2] (setting [9]) it was 16464 and 15348. For the same compound, the “Peak area (replicates)” value at Anthrax lethal factor [2] (setting [10]) is 22235 and 22382; at Anthrax lethal factor [2] (setting [11]) it was 36468 and 36027; at Anthrax lethal factor [2] (LF 20 pg/ml neat plasma, 2 hour digest) it was 16883 and 14926; on Anthrax lethal factor [2] (setting [12]), 24042 and 24282; at Anthrax lethal factor [2] (setting [13]), 31594 and 34237; at Anthrax lethal factor [2] (setting [14]) it was 58250 and 57550. The “Peak area (replicates)” value on Anthrax lethal factor [2] (setting [15]) is 33668 and 33656; on Anthrax lethal factor [2] (setting [16]), 49662 and 48443; on Anthrax lethal factor [2] (setting [17]), 67245 and 66068; at Anthrax lethal factor [2] (setting [18]), 136035 and 124407. Moreover, the LOD at Anthrax lethal factor [2] (2 hr digest) came to 2.9 pg/ml plasma; at Anthrax lethal factor [2] (3.5 hr digest), 4.3 pg/ml plasma; on Anthrax lethal factor [2] (5 hr digest), 2.2 pg/ml plasma; at Anthrax lethal factor [2] (overnight digest (RT)), 2.8 pg/ml plasma. Further, the “3x standard deviation + the average” value at Anthrax lethal factor [2] (2 hr digest) is recorded as 7189; at Anthrax lethal factor [2] (3.5 hr digest) it was 11735; on Anthrax lethal factor [2] (5 hr digest), 12768; at Anthrax lethal factor [2] (overnight digest (RT)) it was 21393. Further, the Intercept on Anthrax lethal factor [2] (2 hr digest) was 5595 Peak area; at Anthrax lethal factor [2] (3.5 hr digest) it was 8256 Peak area; at Anthrax lethal factor [2] (5 hr digest), 10324 Peak area; at Anthrax lethal factor [2] (overnight digest (RT)) it was 14916 Peak area. For the same compound, the Slope on Anthrax lethal factor [2] (2 hr digest) was 553 Peak Area/pg LF; at Anthrax lethal factor [2] (3.5 hr digest) it was 811 Peak Area/pg LF; on Anthrax lethal factor [2] (5 hr digest), 1127 Peak Area/pg LF; on Anthrax lethal factor [2] (overnight digest (RT)) it was 2280 Peak Area/pg LF. The “Limit of detection, kinetic analysis (peak area vs time)” value on Anthrax lethal factor [2] (reaction rate method) is “around 5 pg LF/ml neat plasma”. Moreover, at Anthrax lethal factor [3], the “Amount of hydrolysis by LF compared with LBL 10079 (no D-amino acids)” value was “similar”.
Turning to `CC(=O)N[C@H](CCCNC(=N)N)C(=O)N[C@H](CCCNC(=N)N)C(=O)N[C@H](CCCCN)C(=O)N[C@H](CCCCN)C(=O)N[C@H](C(=O)N[C@@H](Cc1ccc(O)cc1)C(=O)N1CCC[C@H]1C(=O)Nc1ccc2c(C)cc(=O)oc2c1)C(C)C` [LBL 10097], at Anthrax lethal factor [1] (5 hrs digest), the LOD is listed as 120 pg/ml of 1:10 diluted plasma and the “LOD × 10, neat plasma” value was 1200 pg/ml. On Anthrax lethal factor [1] (24 hrs digest), the LOD was 139 pg/ml of 1:10 diluted plasma and the “LOD × 10, neat plasma” value came out at 1390 pg/ml. Besides, the “Cleavage by LF compared with LBL 10081 (L-Arg at N-terminal)” value at Anthrax lethal factor [3] is reported as “similar”.
As to `CC(=O)N[C@@H](CCCNC(=N)N)C(=O)N[C@H](CCCNC(=N)N)C(=O)N[C@H](CCCCN)C(=O)N[C@H](CCCCN)C(=O)N[C@H](C(=O)N[C@@H](Cc1ccc(O)cc1)C(=O)N1CCC[C@H]1C(=O)Nc1ccc2c(C(F)(F)F)cc(=O)oc2c1)C(C)C` [LBL 10108], on Anthrax lethal factor [1] (1:10 diluted plasma), the “Fluorescence as a function of LF concentration in 1:10 diluted plasma” value is recorded as “fluorescence increased as a function of LF concentration” and the “Sensitivity compared to LBL 10081 or LBL 10097” value is “no significant improvement in the sensitivity”.
